In US9625458B2, “Biosensor” (priority 2002, dated 2017):

Test: Fluorescence emission spectra without and with saturating ligand (wavelength shift, ΔIstd, ΔRmax)
Settings: for λmax,apo (nm) / λmax,sat (nm): wavelength of emission maximum; for λmax,apo (nm): absence of ligand; for λmax,sat (nm): saturating ligand
Method: Fluorimetry. All measurements were conducted with an SLM Aminco-Bowman series 2 fluorimeter, with sample stirring at 25° C. Fluorescence emission spectra were acquired with excitation and emission slit widths of 4 and 8 nm, respectively. Photomultiplier tube potential was maintained between 400 and 800 volts. Protein concentrations were in the range of 50 to 1000 nM. Fluorophore-specific excitation was at the following approximate wavelengths: tryptophan, 290 nm; acrylodan, 390 nm; fluorescein, 485 nm; pyrene, 340 nm; NBD and NBDE, 490 nm; JPW4039, 485 nm; JPW4042, 470 nm; JPW4045, 470 nm.
Assessment of fluorescent biosensor function. Fluorescence emission spectra of bPBP-fluorophore conjugates were recorded in the absence and presence of saturating ligand concentrations. Spectral changes were characterized by four parameters: wavelength shift (the difference between the wavelengths of emission maximum in the unbound and ligand-saturated states), direction of intensity change (increase or decrease in intensity at the wavelengths of maximum emission in the two states), standard intensity change (ΔIstd), and standard ratiometric change (ΔR). ΔIstd is defined as the normalized intensity change relative to the average intensity, determined at the wavelength mid-point between the two emission maxima:
[formula] where λstd=(λmax, unbound+λmax, saturated)/2 and I1, I2 are the fluorescence intensities at λstd of each spectrum respectively (FIG. 4A). ΔR is defined in terms of two emission bands, A1 ([λ1, λ2]) and A2 ([λ3, λ4]) (FIG. 4B):
[formula] where ^∘A1, […] the areas in the absence of ligand, and ^∞A1, ^∞A2 the areas in the presence of saturating ligand. A computer program was used to enumerate ΔR for all possible pairs of wavelength bands in the two spectra, to identify the optimal sensing condition, defined as the maximum value of ΔR. Adjustable parameters of the algorithm, and their values used for ΔRmax quantities reported here, are: step size (2 nm), step width (10 nm), minimum integration area limit (fraction of total: 0.1), and maximum integration area limit (fraction of total: 1).

sulfate BP L65C Acrylodan
λmax,apo (nm): 492 | λmax,sat (nm): 482

sulfate BP L65C Fluorescein
λmax,apo (nm): 520 | λmax,sat (nm): 516

sulfate BP L65C JPW4042
λmax,apo (nm): 629 | λmax,sat (nm): 635

sulfate BP L65C NBD
λmax,apo (nm): 522 | λmax,sat (nm): 521

sulfate BP Q294C Acrylodan
λmax,apo (nm): 500 | λmax,sat (nm): 500

sulfate BP Q294C Fluorescein
λmax,apo (nm): 515 | λmax,sat (nm): 514

sulfate BP Q294C JPW4042
λmax,apo (nm): 636 | λmax,sat (nm): 630

sulfate BP Q294C NBD
λmax,apo (nm): 530 | λmax,sat (nm): 530

sulfate BP R134C Acrylodan
λmax,apo (nm): 493 | λmax,sat (nm): 478

sulfate BP R134C Fluorescein
λmax,apo (nm): 512 | λmax,sat (nm): 512

sulfate BP R134C JPW4039
λmax,apo (nm): 522 | λmax,sat (nm): 518

sulfate BP R134C JPW4042
λmax,apo (nm): 606 | λmax,sat (nm): 608

sulfate BP R134C NBD
λmax,apo (nm): 531 | λmax,sat (nm): 532

sulfate BP R134C-acrylodan: sulfate BP R134C mutant conjugated to acrylodan
ΔRmax (maximum standard ratiometric change) (apo vs saturating ligand, optimal pair of emission bands): 2.3

sulfate BP W290C Acrylodan
λmax,apo (nm): 496 | λmax,sat (nm): 496

sulfate BP W290C Fluorescein
λmax,apo (nm): 516 | λmax,sat (nm): 515

sulfate BP W290C JPW4042
λmax,apo (nm): 612 | λmax,sat (nm): 624

sulfate BP W290C NBD
λmax,apo (nm): 538 | λmax,sat (nm): 537

sulfate BP Y67C Acrylodan
λmax,apo (nm): 503 | λmax,sat (nm): 502

sulfate BP Y67C Fluorescein
λmax,apo (nm): 515 | λmax,sat (nm): 515

sulfate BP Y67C NBD
λmax,apo (nm): 536 | λmax,sat (nm): 534
